Measurements taken from US20240065998A1, “MONOACYLGLYCEROL AND FREE FATTY ACID-BASED COMPOSITIONS, METHODS OF MANUFACTURING AND USE OF THE SAME” (priority 2021, published 2024).

Test system: Influenza A(H1N1)pdm09 (California/07/09)
Details: Table 58A, 70%, 2 min, 37 ± 2° C.; VC titer 5.7

Q: For CCO [Ethanol], which LRV is on record?
A: The LRV was >5.0.
